Among the data in PubChem BioAssay AID540276 (National Center for Advancing Translational Sciences (NCATS), 2011) are Potency values, retold here.

The list shows a part of the results, in another mix than the full data. Records with an inconclusive call do not appear. Activity calls are given as the source filed them. Calls follow the shape of the full dose curve; tested in HEK293 cells.
Potency is read from the fitted curve at half-maximal effect.

The test in a line: qHTS for inhibitors of binding or entry into cells for Marburg Virus. The settings on record: Marburg virus pseudotyped entry inhibition, cell reporter.
As for `N#C/C(=C\c1ccc(N(CCBr)CCBr)cc1)C(N)=O`, the Potency was active: 4.47 µM.
Under `CN(C(=O)Cc1ccc(Cl)c(Cl)c1)[C@@H]1CC[C@]2(CCCO2)C[C@H]1N1CCCC1` stands active: 14.1 µM.
